From publication PMC4361584
Construct, isoform or probe ends are uncertain for at least one entry. The comparison behind a weaker result is the experiment's own reference, which may not be listed here.

By UniProt entry, the sequences of proteins in these tests, tags left out. Where a name states a change or a piece, a line headed by the entry shows the natural chain unless it says otherwise.
UniProt P22513: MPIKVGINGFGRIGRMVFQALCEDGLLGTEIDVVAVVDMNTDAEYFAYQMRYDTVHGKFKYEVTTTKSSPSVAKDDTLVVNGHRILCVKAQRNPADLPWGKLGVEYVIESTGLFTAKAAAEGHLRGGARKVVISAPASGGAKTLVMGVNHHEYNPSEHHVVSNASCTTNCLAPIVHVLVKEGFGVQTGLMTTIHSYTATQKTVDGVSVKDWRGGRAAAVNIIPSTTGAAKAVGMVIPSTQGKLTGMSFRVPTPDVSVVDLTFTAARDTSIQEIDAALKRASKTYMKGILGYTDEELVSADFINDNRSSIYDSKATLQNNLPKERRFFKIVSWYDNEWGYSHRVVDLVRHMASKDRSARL

Biological target: rTcGAPDH (glyceraldehyde 3-phosphate dehydrogenase) (Trypanosoma cruzi) (UniProt P22513)
Test: EMSA
Conditions: NAD+ (50, 75, 100, uM), 1.35 uM GAPDH, dose-dependent inhibition (abstract: abolishes); 1x from 5x buffer: 20 mM HEPES pH 6.0, 1 mM EDTA, 10 mM (NH4)2SO4, 1 mM DTT, 0.2% Tween 20, 30 mM KCl; 0.1 ug poly-lysine, 1 ug poly[d(I-C)], 20 ul, on ice 15 min; recombinant protein; protein details: His-tag; single-stranded DNA

## TTAGGGTTAGGGTTAGGGTTAGGGTTAGGGTTAGGG [ss (TTAGGG)6]
  binding result: binds more weakly
